Data: US20190390248

Assays:
[1] = biological target: human prothrombin, P00734
[2] = biological target: T1, purified human fibrinogen, P02671
T1 chain 1: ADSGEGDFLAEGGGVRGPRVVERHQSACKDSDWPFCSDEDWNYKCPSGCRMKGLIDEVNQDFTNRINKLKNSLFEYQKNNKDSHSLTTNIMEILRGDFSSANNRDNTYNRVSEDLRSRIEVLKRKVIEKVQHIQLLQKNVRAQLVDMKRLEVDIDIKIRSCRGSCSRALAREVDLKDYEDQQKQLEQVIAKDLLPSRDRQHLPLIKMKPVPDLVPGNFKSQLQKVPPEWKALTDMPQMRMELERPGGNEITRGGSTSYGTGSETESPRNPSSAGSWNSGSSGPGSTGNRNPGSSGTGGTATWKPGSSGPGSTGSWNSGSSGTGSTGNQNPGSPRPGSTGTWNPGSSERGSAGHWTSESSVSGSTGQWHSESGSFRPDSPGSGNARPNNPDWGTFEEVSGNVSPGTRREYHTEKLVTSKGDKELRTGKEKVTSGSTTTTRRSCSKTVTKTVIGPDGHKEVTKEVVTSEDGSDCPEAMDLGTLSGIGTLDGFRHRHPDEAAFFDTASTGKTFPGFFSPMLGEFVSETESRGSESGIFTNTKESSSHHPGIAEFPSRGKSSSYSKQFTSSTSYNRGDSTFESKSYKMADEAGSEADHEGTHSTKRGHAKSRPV
T1 chain 2: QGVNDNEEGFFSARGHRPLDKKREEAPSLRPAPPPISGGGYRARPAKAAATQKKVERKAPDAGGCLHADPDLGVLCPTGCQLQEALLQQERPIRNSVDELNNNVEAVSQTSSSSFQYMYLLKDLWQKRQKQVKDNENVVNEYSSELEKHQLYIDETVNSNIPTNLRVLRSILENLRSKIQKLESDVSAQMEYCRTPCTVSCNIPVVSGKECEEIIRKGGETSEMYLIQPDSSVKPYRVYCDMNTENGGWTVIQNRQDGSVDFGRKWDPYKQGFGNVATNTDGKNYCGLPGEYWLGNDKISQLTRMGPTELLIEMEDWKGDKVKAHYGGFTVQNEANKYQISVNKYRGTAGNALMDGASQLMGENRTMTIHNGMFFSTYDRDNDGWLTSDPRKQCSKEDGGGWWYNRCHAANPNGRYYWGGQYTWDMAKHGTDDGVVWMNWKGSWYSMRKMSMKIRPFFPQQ
T1 chain 3: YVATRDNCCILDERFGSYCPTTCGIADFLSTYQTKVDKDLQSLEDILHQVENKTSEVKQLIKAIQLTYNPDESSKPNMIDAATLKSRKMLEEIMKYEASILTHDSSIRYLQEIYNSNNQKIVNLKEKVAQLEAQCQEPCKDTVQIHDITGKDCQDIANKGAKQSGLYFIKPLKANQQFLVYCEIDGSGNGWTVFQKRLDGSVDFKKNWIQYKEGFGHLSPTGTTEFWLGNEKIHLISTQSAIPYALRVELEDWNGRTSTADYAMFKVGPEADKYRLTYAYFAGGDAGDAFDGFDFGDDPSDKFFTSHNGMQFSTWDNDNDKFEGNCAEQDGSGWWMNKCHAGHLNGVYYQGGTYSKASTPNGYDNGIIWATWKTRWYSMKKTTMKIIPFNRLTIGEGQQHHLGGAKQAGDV

[3] = biological target: descarboxyprothrombin, P00734

B1: PtPA (prothrombin activator purified from Pseudonaja textilis venom) (protein)
chain 1: AQLREYHIAAQLEDWDYNPQPEELSRLSESDLTFKKIVYREYELDFKQEKPRDELSGLLGPTLRGEVGDILIIYFKNFATQPVSIHPQSAVYNKWSEGSSYSDGTSDVERLDDAVPPGQSFKYVWNITAEIGPKKADPPCLTYAYYSHVNMVRDFNSGLIGALLICKEGSLNANGSQKFFNREYVLMFSVFDESKNWYRKPSLQYTINGFANGTLPDVQACAYDHISWHLIGMSSSPEIFSVHFNGQTLEQNHYKVSTINLVGGASVTANMSVSRTGKWLISSLVAKHLQAGMYGYLNIKDCGNPDTLTRKLSFRELRRIMNWEYFIAAEEITWDYAPEIPSSVDRRYKAQYLDNFSNFIGKKYKKAVFRQYKDSNFTKPTYAIWPKERGILGPVIRAKVRDTISIVFKNLASRPYSIYVHGVSVSKDAEGAIYPSDPKENITHGKAVEPGQVYTYKWTVLDTDEPTVKDSECITKLYHSAVDMTRDIASGLIGPLLVCKHKALSVKGVQNKADVEQHAVFAVFDENKSWYLEDNIKKYCSNPSTVKKDDPKFYKSNVMYTLNGYASDRTEVLGFHQSEVVEWHLTSVGTVDEIVPVHLSGHTFLSKGKHQDILNLFPMSGESATVTMDNLGTWLLSSWGSCEMSNGMRLRFLDANYDDEDEGNEEEEEDDGDIFADIFIPPEVVKKKEKDPVNFVSDPESDKIAKELGLLDDEDNQEESHNVQTEDDEEQLMIATMLGFRSFKGSVAEEELNLTALALEEDAHASDPRIDSNSARNPDDIAGRYLRTINRGNKRRYYIAAEEVLWDYSPIGKSQVRSRAAKTTFKKAIFRSYLDDTFQTPSTGGEYEKHLGILGPIIRAEVDDVIEVQFRNLASRPYSLHAHGLLYEKSSEGRSYDDKSPELFKKDDAIMPNGTYTYVWQVPPRSGPTDNTEKCKSWAYYSGVNPEKDIHSGLIGPILICQKGMIDKYNRTIDIREFVLFFMVFDEEKSWYFPKSDKSTRAEKLIGVQSRHTFPAINGIPYQLQGLTMYKDENVHWHLLNMGGPKDIHVVNFHGQTFTEEGREDNQLGVLPLLPGTFASIKMKPSKIGTWLLETEVGENQERGMQALFTVIDKDCKLPMGLASGIIQDSQISASGHVGYWEPKLARLNNTGKYNAWSIIKKEHEHPWIQIDLQRQVVITGIQTQGAMQLLKHLYTVEYFFTYSKDGQNWITFKGRHSETQMHFEGNSDGTTVKENHIDPPIIARYIRLHPTKFHNRPTFRIELLGCEVEGCSVPLGMESGAIKNSEITASSYKKTWWSSWEPSLARLNLKGRTNAWQPKVNNKDQWLQIDLQHLTKITSIITQGATSMTTSMYVKTFSIHYTDDNSTWKPYLDVRTSMEKVFTGNINSDGHVKHFFKPPILSRFIRIIPKTWNQYIALRIELFGCEVF
chain 2: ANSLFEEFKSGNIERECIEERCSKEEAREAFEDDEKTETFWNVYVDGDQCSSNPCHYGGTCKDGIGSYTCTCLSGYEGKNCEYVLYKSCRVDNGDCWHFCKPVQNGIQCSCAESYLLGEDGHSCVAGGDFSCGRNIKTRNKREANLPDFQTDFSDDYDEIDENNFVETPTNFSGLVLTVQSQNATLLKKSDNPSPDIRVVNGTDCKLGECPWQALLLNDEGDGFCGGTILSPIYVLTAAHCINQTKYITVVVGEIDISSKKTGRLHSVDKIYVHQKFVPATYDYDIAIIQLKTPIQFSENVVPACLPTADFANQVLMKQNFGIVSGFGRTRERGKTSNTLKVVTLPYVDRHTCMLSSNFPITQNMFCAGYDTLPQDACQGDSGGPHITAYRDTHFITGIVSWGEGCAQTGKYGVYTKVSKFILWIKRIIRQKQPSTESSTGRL
- Clotting time, Factor V-deficient plasma sample (vi), 54 nM PtPA [1]: 12.8 s
- Clotting time, Factor X-deficient plasma sample (v), 54 nM PtPA [1]: 16.5 s
- Clotting time, recalcified citrated plasma sample (i), 3.8 nM PtPA [1]: 48.2 s
- Clotting time, recalcified citrated plasma sample (i), 7.3 nM PtPA [1]: 34.6 s
- Clotting time, recalcified citrated plasma sample (i), 16 nM PtPA [1]: 22.5 s
- Clotting time, recalcified citrated plasma sample (i), 26 nM PtPA [1]: 16.4 s
- Clotting time, recalcified citrated plasma sample (i), 54 nM PtPA [1]: 12.8 s
- fold more effective than carinactivase-1 (activation rate constants) [1]: more than 200 times then carinactivase-1
- fold more effective than carinactivase-2 (activation rate constants) [1]: more than 20 times more effective than ecarin and carinactivase-2
- fold more effective than ecarin (activation rate constants) [1]: more than 20 times more effective than ecarin and carinactivase-2
- fold more effective than notecarin (activation rate constants) [1]: approximately 1000 times more effective than notecarin
- Thrombin generation rate ([1]; scale: nmol thrombin/mL/min/µmol prothrombin/µmol activator): 40.3
- Clotting time, purified human fibrinogen sample (vii), 54 nM PtPA [2]: > 180 s
- Clotting time, Al(OH)3-adsorbed warfarin plasma sample (iv), 3.8 nM PtPA [3]: 59.8 s
- Clotting time, Al(OH)3-adsorbed warfarin plasma sample (iv), 7.3 nM PtPA [3]: 42.3 s
- Clotting time, Al(OH)3-adsorbed warfarin plasma sample (iv), 16 nM PtPA [3]: 28.6 s
- Clotting time, Al(OH)3-adsorbed warfarin plasma sample (iv), 26 nM PtPA [3]: 26.8 s
- Clotting time, Al(OH)3-adsorbed warfarin plasma sample (iv), 54 nM PtPA [3]: 18.4 s
- Clotting time, warfarin plasma sample (iii), 3.8 nM PtPA [3]: 55 s
- Clotting time, warfarin plasma sample (iii), 7.3 nM PtPA [3]: 38.8 s
- Clotting time, warfarin plasma sample (iii), 16 nM PtPA [3]: 24.6 s
- Clotting time, warfarin plasma sample (iii), 26 nM PtPA [3]: 18.4 s
- Clotting time, warfarin plasma sample (iii), 54 nM PtPA [3]: 15.6 s
